From the supplement of paper PMC3578754
Fold change is the IC50 on the isolate divided by the IC50 on a reference virus; 1 = unchanged, higher = more resistant. Changes are given against the subtype B consensus. No active / inactive call. The values were gathered from many studies (numbered anew) with different assays, which the source does not name. Most viruses are clinical isolates; some are laboratory strains or clones with known resistance changes. Isolates with mixed residues are left out; stretches that were not sequenced show no change. Round top values that many isolates share are read here as limits; other very high values and 0.1 may be limits too. The protease changes I3V and N37S, insertions and deletions cannot be read from the source.

What was measured:
Assay in all cases: fold change of IC50 against reference virus; higher = more resistant; Cell-culture drug susceptibility tests of virus bearing the protease of each isolate, gathered from many studies.
nelfinavir = compound: Cc1c(O)cccc1C(=O)N[C@@H](CSc1ccccc1)[C@H](O)CN1C[C@H]2CCCC[C@H]2C[C@H]1C(=O)NC(C)(C)C [nelfinavir]
lopinavir = compound: Cc1cccc(C)c1OCC(=O)N[C@@H](Cc1ccccc1)[C@@H](O)C[C@H](Cc1ccccc1)NC(=O)[C@H](C(C)C)N1CCCNC1=O [lopinavir]
ritonavir = compound: CC(C)c1nc(CN(C)C(=O)N[C@H](C(=O)N[C@@H](Cc2ccccc2)C[C@H](O)[C@H](Cc2ccccc2)NC(=O)OCc2cncs2)C(C)C)cs1 [ritonavir]
tipranavir = compound: CCC[C@@]1(CCc2ccccc2)CC(O)=C([C@H](CC)c2cccc(NS(=O)(=O)c3ccc(C(F)(F)F)cn3)c2)C(=O)O1 [tipranavir]
atazanavir = compound: COC(=O)N[C@H](C(=O)N[C@@H](Cc1ccccc1)[C@@H](O)CN(Cc1ccc(-c2ccccn2)cc1)NC(=O)[C@@H](NC(=O)OC)C(C)(C)C)C(C)(C)C [atazanavir]
indinavir = compound: CC(C)(C)NC(=O)[C@@H]1CN(Cc2cccnc2)CCN1C[C@@H](O)C[C@@H](Cc1ccccc1)C(=O)N[C@H]1c2ccccc2C[C@H]1O [indinavir]
saquinavir = compound: CC(C)(C)NC(=O)[C@@H]1C[C@@H]2CCCC[C@@H]2CN1C[C@@H](O)[C@H](Cc1ccccc1)NC(=O)[C@H](CC(N)=O)NC(=O)c1ccc2ccccc2n1 [saquinavir]

HIV-1 isolate 436 (protease changes: L10F I15V D30N L33F E35D M36L N37E K43T D60E I62V L63P I84V N88D L90M, study 64)
fold change of IC50 against reference virus (nelfinavir): ≥ 600 | fold change of IC50 against reference virus (lopinavir): 30 | fold change of IC50 against reference virus (ritonavir): 57 | fold change of IC50 against reference virus (tipranavir): 3.1 | fold change of IC50 against reference virus (atazanavir): 99 | fold change of IC50 against reference virus (indinavir): 15

HIV-1 isolate 673 (protease changes: L10I V32I L33F K43T M46I I54M D60E L63P I64M A71V V82A L89M L90M I93L, study 15)
fold change of IC50 against reference virus (saquinavir): 3.5 | fold change of IC50 against reference virus (nelfinavir): 47 | fold change of IC50 against reference virus (lopinavir): 33 | fold change of IC50 against reference virus (ritonavir): 69 | fold change of IC50 against reference virus (tipranavir): 4.4 | fold change of IC50 against reference virus (atazanavir): 69

HIV-1 isolate 750 (protease changes: L10I K14R V32I R41K G48M F53L I54M I62V L63A C67D H69R A71L I72V V77I V82A I84V L90M I93L, study 64)
fold change of IC50 against reference virus (nelfinavir): 19 | fold change of IC50 against reference virus (lopinavir): 39 | fold change of IC50 against reference virus (ritonavir): ≥ 800 | fold change of IC50 against reference virus (tipranavir): 1.3 | fold change of IC50 against reference virus (atazanavir): 55 | fold change of IC50 against reference virus (indinavir): 61

HIV-1 isolate 754 (protease changes: T4S L10I K20R E35D M36I G48V I50V I54A I62V L63P H69Q A71V V82T Q92K, study 64)
fold change of IC50 against reference virus (nelfinavir): 29 | fold change of IC50 against reference virus (lopinavir): 118 | fold change of IC50 against reference virus (ritonavir): 75 | fold change of IC50 against reference virus (tipranavir): 0.6 | fold change of IC50 against reference virus (atazanavir): 17 | fold change of IC50 against reference virus (indinavir): 97

HIV-1 isolate 765 (protease changes: L10I M46I I62V L63P A71V T74P V77I I84V L90M Q92R I93L, study 64)
fold change of IC50 against reference virus (saquinavir): 38 | fold change of IC50 against reference virus (nelfinavir): 25 | fold change of IC50 against reference virus (lopinavir): 23 | fold change of IC50 against reference virus (ritonavir): 27 | fold change of IC50 against reference virus (tipranavir): 1.9 | fold change of IC50 against reference virus (atazanavir): 18

HIV-1 isolate 859 (protease changes: L10I I13V I15V L19V L24I V32I L33F K43E M46L I54L D60E L63P A71V I72V V82A I84V, study 64)
fold change of IC50 against reference virus (saquinavir): 7.7 | fold change of IC50 against reference virus (nelfinavir): 37 | fold change of IC50 against reference virus (lopinavir): 49 | fold change of IC50 against reference virus (ritonavir): ≥ 800 | fold change of IC50 against reference virus (tipranavir): 2.5 | fold change of IC50 against reference virus (atazanavir): 86

HIV-1 isolate 918 (protease changes: L10I I13V K20I L33V E35D M36I N37T M46I I54V Q58E I62V L63P A71V T74P V82L L90M I93L, study 64)
fold change of IC50 against reference virus (saquinavir): 7.4 | fold change of IC50 against reference virus (nelfinavir): 93 | fold change of IC50 against reference virus (lopinavir): 36 | fold change of IC50 against reference virus (ritonavir): 84 | fold change of IC50 against reference virus (tipranavir): ≥ 800 | fold change of IC50 against reference virus (atazanavir): 107

HIV-1 isolate 966 (protease changes: L10F G16A L19I K20R L33F E35D M36L N37D K43T M46L I54V K55R R57K D60E I62V L63P A71V V82A I84V L90M I93L, study 64)
fold change of IC50 against reference virus (nelfinavir): 64 | fold change of IC50 against reference virus (lopinavir): 127 | fold change of IC50 against reference virus (ritonavir): ≥ 800 | fold change of IC50 against reference virus (tipranavir): 24 | fold change of IC50 against reference virus (atazanavir): 59 | fold change of IC50 against reference virus (indinavir): 63

HIV-1 isolate 1011 (protease changes: L10I K20R E35D M36I K43T I47V G48M F53L I54V I62V L63P I66F A71V V82T I84V Q92R, study 64)
fold change of IC50 against reference virus (nelfinavir): 12 | fold change of IC50 against reference virus (lopinavir): 58 | fold change of IC50 against reference virus (ritonavir): ≥ 800 | fold change of IC50 against reference virus (tipranavir): 16 | fold change of IC50 against reference virus (atazanavir): 46 | fold change of IC50 against reference virus (indinavir): 57

HIV-1 isolate 1081 (protease changes: L10F I13V K20R D30N V32I L33F M36I N37D M46I I54L L63P I64L I66V A71T I72T I84V N88D L89M L90M I93L C95F, study 64)
fold change of IC50 against reference virus (nelfinavir): ≥ 600 | fold change of IC50 against reference virus (lopinavir): 76 | fold change of IC50 against reference virus (ritonavir): ≥ 800 | fold change of IC50 against reference virus (tipranavir): 1 | fold change of IC50 against reference virus (atazanavir): ≥ 700 | fold change of IC50 against reference virus (indinavir): 36

HIV-1 isolate 1162 (protease changes: L10I L33F E35D M36I K43T G48V I54T L63P H69R A71I V82A I84V I93L, study 64)
fold change of IC50 against reference virus (nelfinavir): 62 | fold change of IC50 against reference virus (lopinavir): 106 | fold change of IC50 against reference virus (ritonavir): ≥ 800 | fold change of IC50 against reference virus (tipranavir): 4.2 | fold change of IC50 against reference virus (atazanavir): ≥ 700 | fold change of IC50 against reference virus (indinavir): ≥ 500

HIV-1 isolate 1261 (protease changes: L10I L19I K20R E34D E35D M36I R41K M46I I47V I54M L63P A71T I84V I85V L90M I93L, study 64)
fold change of IC50 against reference virus (saquinavir): 62 | fold change of IC50 against reference virus (nelfinavir): 53 | fold change of IC50 against reference virus (lopinavir): 76 | fold change of IC50 against reference virus (ritonavir): 84 | fold change of IC50 against reference virus (tipranavir): ≥ 800 | fold change of IC50 against reference virus (atazanavir): 53

HIV-1 isolate 1369 (protease changes: L10I I13V L63P H69Q I72V V77I, study 64)
fold change of IC50 against reference virus (nelfinavir): 2.2 | fold change of IC50 against reference virus (lopinavir): 1.2 | fold change of IC50 against reference virus (ritonavir): 1.9 | fold change of IC50 against reference virus (tipranavir): 1.2 | fold change of IC50 against reference virus (atazanavir): 1.5 | fold change of IC50 against reference virus (indinavir): 1.5

HIV-1 isolate 1378 (protease changes: L10I K20R E35D M36I N37D M46L G48V I54V D60E I62V L63P A71V I72V V77I V82S L90M I93L, study 64)
fold change of IC50 against reference virus (nelfinavir): ≥ 600 | fold change of IC50 against reference virus (lopinavir): ≥ 500 | fold change of IC50 against reference virus (ritonavir): ≥ 800 | fold change of IC50 against reference virus (tipranavir): 4.8 | fold change of IC50 against reference virus (atazanavir): ≥ 700 | fold change of IC50 against reference virus (indinavir): ≥ 500

HIV-1 isolate 1453 (protease changes: L10I L33F M46I F53L I54L I62V L63P A71V T74P I84V L90M I93L, study 64)
fold change of IC50 against reference virus (nelfinavir): 43 | fold change of IC50 against reference virus (lopinavir): 58 | fold change of IC50 against reference virus (ritonavir): ≥ 800 | fold change of IC50 against reference virus (tipranavir): 5.3 | fold change of IC50 against reference virus (atazanavir): 100 | fold change of IC50 against reference virus (indinavir): 11

HIV-1 isolate 1476 (protease changes: L10I K20R L33I M36I I54V Q58E D60E L63P A71V V82L I84V L90M I93L, study 64)
fold change of IC50 against reference virus (nelfinavir): 118 | fold change of IC50 against reference virus (lopinavir): 101 | fold change of IC50 against reference virus (ritonavir): ≥ 800 | fold change of IC50 against reference virus (tipranavir): ≥ 800 | fold change of IC50 against reference virus (atazanavir): 324 | fold change of IC50 against reference virus (indinavir): 134

HIV-1 isolate 1520 (protease changes: L10F I13V K20R D30N L33I E35D M36I M46L I54V R57K L63P A71V V82A N88D L90M I93L, study 64)
fold change of IC50 against reference virus (nelfinavir): ≥ 600 | fold change of IC50 against reference virus (lopinavir): 97 | fold change of IC50 against reference virus (ritonavir): ≥ 800 | fold change of IC50 against reference virus (tipranavir): 1.1 | fold change of IC50 against reference virus (atazanavir): 51 | fold change of IC50 against reference virus (indinavir): 57

HIV-1 isolate 1623 (protease changes: L10I L24I M46L G48V I54V L63P A71V V77I V82A, study 64)
fold change of IC50 against reference virus (nelfinavir): 99 | fold change of IC50 against reference virus (lopinavir): 126 | fold change of IC50 against reference virus (ritonavir): ≥ 800 | fold change of IC50 against reference virus (tipranavir): 0.5 | fold change of IC50 against reference virus (atazanavir): 161 | fold change of IC50 against reference virus (indinavir): 90
